Compound potency records, mixed from different reports. Data source: NIAID ChemDB in PubChem.

Shared fields: enzyme or target tests; organism: Hepatitis C virus; target: NS5B polymerase; measure: IC50

Conditions beyond the fields shown may differ between rows. a–b is a range or a potency band. ICn is the concentration giving n% inhibition.

| structure | value |
|---|---|
| O=C1/C(=C\c2ccc(Br)cc2)SC(=S)N1NS(=O)(=O)c1ccccc1 | 0.44 µM |
| O=C1c2cc([N+](=O)[O-])ccc2-n2c1nc1ncccc1c2=O | 0.03 µM |
| C[C@@]1(O)[C@H](O)[C@@H](CO)O[C@H]1n1ccc2c(N)nc(N)nc21 | <100 µM |
| C/C=C/C/C=C/CCC(=O)[C@H]1O[C@H]1C(N)=O | 500 µM |
| COC(=O)[C@H](C)NP(=O)(OC[C@H]1O[C@@H](n2ccc3c(N)ncnc32)[C@](C)(O)[C@@H]1O)Oc1ccccc1 | <100 µM |
| Cc1ccc(C(=O)N2CCOCC2)c(Nc2ccc3cn[nH]c3c2)n1 | <0.1 µg/mL |
| O=C1/C(=C\c2ccc(Cl)c(Cl)c2)SC(=S)N1NS(=O)(=O)c1ccccc1F | ≤30 µM |
| C[C@@]1(O)[C@H](O)[C@@H](CO)O[C@H]1n1cnc2c(=O)[nH]c(N)nc21 | <100 µM |
| CCN1C(=O)/C(=C\c2ccc(Cl)cc2)SC1=S | >30 µM |
| NCc1ccc(Nc2ccc(C(F)(F)F)cc2NC(=O)c2cc(Cl)c(Cl)cc2C(=O)O)cc1 | 1.4 µM |
| C[C@@]1(O)[C@H](O)[C@@H](CO)O[C@H]1n1cnc2c(N)ncnc21 | 1.9 µM |
| O=C1/C(=C\c2ccc(Cl)c(Cl)c2)SC(=S)N1NS(=O)(=O)c1ccc(F)cc1 | ≤30 µM |
| C[C@@]1(O)[C@H](O)[C@@H](CO)O[C@H]1n1ccc2c(N)ncnc21 | <100 µM |
| O=C(O)c1ccc(-c2ccc(F)c(Cl)c2)c(COc2ccc(-c3nc4cc(-c5nn[nH]n5)ccc4n3C3CCCCC3)c(F)c2)c1 | 0.04 µM |
| O=C1/C(=C\c2ccc(/C=C/c3ccccc3)cc2)SC(=S)N1NS(=O)(=O)c1cccc([N+](=O)[O-])c1 | ≤30 µM |
| O=C(N[C@H](C(=O)O)c1c[nH]c2ccc(O)cc12)c1ccc2c(c1)nc(-c1ccc(C(F)(F)F)cc1)n2C1CCCCC1 | 1–5 µM |

The last 2 rows once more:

O=C1/C(=C\c2ccc(/C=C/c3ccccc3)cc2)SC(=S)N1NS(=O)(=O)c1cccc([N+](=O)[O-])c1 ; value: ≤30 µM
O=C(N[C@H](C(=O)O)c1c[nH]c2ccc(O)cc12)c1ccc2c(c1)nc(-c1ccc(C(F)(F)F)cc1)n2C1CCCCC1 ; value: 1–5 µM